## Primary screen of a compound library

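Growth of Mycobacterium tuberculosis over 3 days (7H9 medium with glucose and tyloxapol); the read-out is not stated. Compounds at 50 µM. The record gives no direction; compounds that gave an IC50 in retests scored well above the rest, so higher reads as more growth inhibition. About 69,000 compounds were tested under these conditions; 1.1% (about 760) showed 50% or more at least once.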

Results are given as percent effect. How 0% and 100% were set is not recorded. Most values in the screen are low, and negative values occur. This is part of a subset picked to be rich in strong results. Two or more numbers in one place are separate tests of the same structure; such repeats can differ widely.

structure,percent effect
Cc1cc(CN(C)Cc2ncc(-c3cccs3)o2)no1,21.69 & 12.41
CNC(=O)c1sc(C2CCCC2)nc1C,10.88
CC1c2cccn2CCN1C(=O)CCc1nc(C2CC2)no1 (configuration not stated),-0.3677 & -22.79
Cc1nccn1C1CCCN(C(=O)c2ccc(N3CCCC3)nn2)C1 (configuration not stated),78.28
O=C(NCC(O)c1cccs1)c1ccco1 (configuration not stated),23.6
O=C1CCC(=O)N1CCN1CCC(=Cc2ccccc2)CC1,-2.746
Cc1cc(=O)[nH]c(-n2nc(-c3ccccc3)cc2N)n1,75.81
CC(=O)Nc1ccc(SCC(O)COCc2ccccc2)cc1 (configuration not stated),10.18 & -4.852
Cc1csc2ncc(-c3ccnc(N4CCCN(C)CC4)n3)c(=O)n12,9.329
CCNC(=O)C1CCCN(c2cccc(C(F)(F)F)n2)C1 (configuration not stated),37.08
c1csc(-c2nc(CNCCn3cccn3)cs2)c1,-38.3 & 6.827
Cc1ncsc1C(=O)NCc1cccs1,10.92
CCCN1CCC(CC(=O)N2CC(C)(C)[C@@](C)(O)C2)CC1,40.27
CC(C)C1=NOC(c2nc(Cc3ccccc3)no2)C1 (configuration not stated),55.29
CCc1cnc(N)nc1NC(C)c1ccc(C)c(C)c1 (configuration not stated),75.18
COCCNc1nc(-c2ccc(S(=O)(=O)N3CCCCCC3)cc2)cs1,39.15
NC(=O)NC(=O)CCN1CCN(c2nccs2)CC1,57.79
CN(C)c1ncnc2c1CCN(c1ccccc1)CC2,-9.271 & -23.93
O=C(O)C(F)(F)F.c1csc(CNCC2COCc3c(-c4ccoc4)nnn3C2)n1 (configuration not stated),-11.91
CN(C)c1cc(C(=O)N2CCN(c3nccs3)CC2)ccn1,15.3
CN(C)c1ccc(C(=O)N2CCCC2c2cnn(C)c2)cn1 (configuration not stated),-39.45
Cc1cc(CN2CCCC2c2noc(C)n2)no1 (configuration not stated),4.667
CC(=O)Nc1nc(C)c(S(=O)(=O)NCCc2ccccn2)s1,-8.195
COc1ccc(CNc2cccnc2-n2cccn2)c(OC)c1OC,8.388 & 1.049
FC(F)(F)c1ccccc1CN1CCOC[C@H](Oc2cccnc2)C1,89.33 & 5.037
CC(C)OCc1noc(C2CCOC2)n1 (configuration not stated),-19.13
NC1CCN(C2CCN(c3ccc(-c4ccco4)cc3)CC2)CC1,22.63 & 43.41
Cc1ccc(S(=O)(=O)N2C[C@H](C3CC3)[C@@H](N)C2)cc1F,14.98
O=C(c1cc(C2CC2)[nH]n1)N1CCN(Cc2ccsc2)CC1,53.94
CNC(=O)CCCNc1cc(C)nc2cc(C)nn12,-0.4528
CSCCC(NC(N)=O)C(=O)Nc1ccc(-n2cccn2)nc1 (configuration not stated),-5.275 & 1.35
COc1cccn(Cc2nnc(-c3cccnc3)o2)c1=O,22.35
[H][C@@]12CCCN1CCCN(c1nc(C(C)(C)C)nc3c1cnn3C)C2,56.93
Cc1nn(C)c2c(NCc3ccncc3)nc(C3CC3)nc12,-6.761
OC(COCc1ccco1)CSc1nnc2ccccn12 (configuration not stated),8.62
COc1cccc(CN2CCC(O)(c3ccc(C)cn3)CC2)c1OC,-42.21 & -2.666
COc1ccc(COCC(=O)N2CCCC(n3cncn3)C2)cc1 (configuration not stated),108.8
Cc1nn(C)c(C)c1CCC(=O)N(C)Cc1ccc(C#N)cc1,26.05
CC(C)=CCN1CCc2onc(-c3ccc(F)c(F)c3)c2C1,-35.31 & 0.8359
Cc1noc(C)c1C(=O)NCCc1cccs1,9.474 & -6.475
Cc1cc(F)ccc1CN1CCC(O)(CN2CCCCC2)C1 (configuration not stated),-16.83
COc1cc(OC)cc(C(=O)NCCCNc2ncccn2)c1,2.247
CCS(=O)(=O)N1CCC(NCC2CNc3cc(C)nn3C2)CC1 (configuration not stated),5.796 & -59.8
COc1ncccc1CNC(=O)c1cnccn1,-16.76
COc1ccc(CNCC2CCN(c3ccccc3OC)C2)cc1O (configuration not stated),32.84 & 6.017
Cc1cc2c(=O)n3c(nc2s1)CCN(C(=O)c1sc(C)nc1C)CC3,57.14
CCOc1ccc(C(=O)NCc2ccnc(N3CCCC3)c2)cn1,24.72 & 14.17
COc1ccc(OC)c(C2CC(=O)Nc3nc(N4CCOCC4)sc32)c1 (configuration not stated),56.53
O=C(CNC(=O)C1CC1)NCc1ccc(Cl)s1,15.54
Cl.FC(F)(F)c1ccc(-c2cnc(C3CCCN3)cn2)cc1 (configuration not stated),56.38
COc1cccc(COCC(=O)N2CCCCCC2)c1,-2.463
CCn1nc(C)c2nc(C(C)C)nc(NCC(C)O)c21 (configuration not stated),7.483
O=C(NC1CCCC1)c1cnn2c(-c3ccco3)ccnc12,52.1
CCC[C@H]1CN(S(=O)(=O)c2cc(C)ccc2F)C[C@@H]1N,15.41
COc1c(F)cc(-c2cccc3c2OC(CN)C3)cc1F (configuration not stated),44.48 & 48.66
CCC1=NC(SCC(=O)c2ccc(Cl)cc2)c2cc(CC)sc2N1 (configuration not stated),-5.276
CNS(=O)(=O)c1cccc(CNc2ccc(C(F)(F)F)nn2)c1,3.734
Cc1csc(N2CCCN(CCC(=O)NC(N)=O)CC2)n1,77.5
CN(Cc1ccc(Br)s1)Cn1nc(-c2ccccc2)oc1=O,-13.24
Cc1nn(C)c(C)c1CCC(=O)N1CCc2sccc2C1,6.739
COc1ccc(F)c(CN2CCCC3(CCN(S(C)(=O)=O)C3)C2)c1 (configuration not stated),-8.831 & 4.855
CC1CCN(C(=O)c2cnn3c(-c4ccco4)ccnc23)CC1,11.78
CN(Cc1nc2ccccc2o1)C1CCCN(c2cccnn2)C1 (configuration not stated),106.3
c1ccc(-c2nc3c(c(NCc4n[nH]c5c4CCC5)n2)CCNC3)cc1,82.47
Fc1ccccc1OC1CCN(CCn2cc3ccccc3n2)CC1,52.51
[H][C@]12CN(C(=O)c3ccno3)CCN1C(=O)N(Cc1ccc(F)cc1)C2,0.8848 & -1.038

Once more, the final 5:

| structure | percent effect |
|---|---|
| `CC1CCN(C(=O)c2cnn3c(-c4ccco4)ccnc23)CC1` | 11.78 |
| `CN(Cc1nc2ccccc2o1)C1CCCN(c2cccnn2)C1` (configuration not stated) | 106.3 |
| `c1ccc(-c2nc3c(c(NCc4n[nH]c5c4CCC5)n2)CCNC3)cc1` | 82.47 |
| `Fc1ccccc1OC1CCN(CCn2cc3ccccc3n2)CC1` | 52.51 |
| `[H][C@]12CN(C(=O)c3ccno3)CCN1C(=O)N(Cc1ccc(F)cc1)C2` | 0.8848 & -1.038 |

Measurements from “University of Dundee, Small-Polar-MMV Screening Library” (2021), ChEMBL document CHEMBL3988442.